Pooled drug test results. Numbers come from NIAID ChemDB, via PubChem.

Shared fields: growth or infection tests; agent: HIV-1; cells: PBMC; read-out: fold resistance

An empty or dashed field is not shown. Lines come from different laboratories, so protocols vary. Fold resistance has wild type as its base.

smiles	strain	mutations	method	value
Cc1cn([C@H]2C[C@H](F)[C@@H](CO)O2)c(=O)[nH]c1=O	BS NRTI-MDR (RT-V75I F77L F116Y Q151M)	RT-V75I F77L F116Y Q151M	antigen	0.7
Cc1csc(NC(=S)N[C@H](C)c2ccccc2)n1	NNRTI-resistant (RT Y181C K103N) A17V	RT-Y181C K103N	p24	>196
Cc1cn([C@H]2C[C@H](N=[N+]=[N-])[C@@H](CO)O2)c(=O)[nH]c1=O	MM	MDR	p24	41
CC(C)=CCN1Cc2cc(Cl)cc3[nH]c(=S)n(c23)C[C@@H]1C	BCF03	RT-A98G Y181C	-	>312.5
C[C@H](CNC(=S)Nc1ccc(Cl)cn1)c1ccccc1	NNRTI-resistant (RT Y181C) A17	RT-Y181C	p24	12.5
CC(C)(C)NC(=O)[C@@H]1CN(Cc2cccnc2)CCN1C[C@@H](O)C[C@@H](Cc1ccccc1)C(=O)N[C@H]1c2ccccc2C[C@H]1O	Clinical isolate	PR-L10R N37D M46I I62V L63P A71V G73S V77I V82T L90M I93L	p24	42.3
Cc1cn([C@H]2C[C@H](N=[N+]=[N-])[C@@H](CO)O2)c(=O)[nH]c1=O	BCF08	RT-A98G Y181C	-	1
Fc1ccccc1CCNC(=S)Nc1ccc(Br)cn1	A17	RT-Y181C	p24	>330
Cc1cn([C@H]2C[C@H](N=[N+]=[N-])[C@@H](CO)O2)c(=O)[nH]c1=O	Recombinant	RT-A62V	p24	0
CC(C)CN(C[C@@H](O)[C@H](Cc1ccccc1)NC(=O)O[C@H]1[C@H]2CCCO[C@H]2O[C@@H]1C)S(=O)(=O)c1ccc(N)cc1	TM	PR-L10I K14R R41K M46I I54V L63P A71V V82A L90M I93L	p24	8
O=c1[nH]cnc2c1ncn2[C@H]1CC[C@@H](CO)O1	HXB2D (RT-K65R)	RT-K65R	p24	3.67
Cc1cn([C@H]2C[C@H](N=[N+]=[N-])[C@@H](CO)O2)c(=O)[nH]c1=O	1495-2 (RT K70R T215Y/F) NRTI resistant	RT-K70R T215Y/F	p24	7
CC(C)(C)NC(=O)[C@@H]1C[C@@H]2CCCC[C@@H]2CN1C[C@@H](O)[C@H](Cc1ccccc1)NC(=O)[C@H](CC(N)=O)NC(=O)c1ccc2ccccc2n1	Clinical isolate	PR-L10I V11I T12E I15V L19I R41K M46L L63 A71T V82A L90M	p24	3.3
O=c1[nH]cnc2c1ncn2[C@H]1CC[C@@H](CO)O1	XM-ABC-resistant	RT-K65R L74V M184V Y115F	p24	1.4
CCCCN1C(=O)C(CC2CCCCC2)NC(=O)C12CCN(Cc1ccc3c(c1)OCCO3)CC2	MM	MDR	p24	1
CC(C)CN(C[C@@H](O)[C@H](Cc1ccccc1)NC(=O)O[C@H]1CCOC1)S(=O)(=O)c1ccc(N)cc1	TM	PR-L10I K14R R41K M46I I54V L63P A71V V82A L90M I93L	p24	24
Cc1cccc(NC(=S)NC[C@H](C)c2ccccc2)n1	NNRTI-resistant (RT Y181C K103N) A17V	RT-Y181C K103N	p24	300
Cc1cn([C@H]2C[C@H](N=[N+]=[N-])[C@@H](CO)O2)c(=O)[nH]c1=O	-	RT-E89G	p24	10
Cc1c(N)nc([C@H](CC(N)=O)NC[C@H](N)C(N)=O)nc1C(=O)N[C@H](C(=O)N[C@H](C)[C@@H](O)[C@H](C)C(=O)N[C@H](C(=O)NCCc1nc(-c2nc(C(=O)NCCC[S+](C)C)cs2)cs1)[C@@H](C)O)C(O[C@@H]1O[C@@H](CO)[C@@H](O)[C@H](O)[C@@H]1O[C@H]1O[C@H](CO)[C@@H](O)[C@H](OC(N)=O)[C@@H]1O)c1cnc[nH]1	Recombinant 3TC/AZT-resistant	RT-M41L M184V T215Y	p24	0.57
COC(=O)[C@H](C)NP(=O)(OC[C@H]1O[C@@H](N2C(=O)NC(=O)C(C)(Br)C2OC)C[C@@H]1N=[N+]=[N-])Oc1ccc(OC)cc1	RTMF(RT-T215Y)	RT-T215Y	RT activity	2.25
CC(C)CN(C[C@@H](O)[C@H](Cc1ccccc1)NC(=O)O[C@@H]1[C@@H]2CCCO[C@@H]2O[C@H]1C)S(=O)(=O)c1ccc(N)cc1	TM	PR-L10I K14R R41K M46I I54V L63P A71V V82A L90M I93L	p24	10
CC(C)(C)NC(=O)[C@@H]1C[C@@H]2CCCC[C@@H]2CN1C[C@@H](O)[C@H](Cc1ccccc1)NC(=O)[C@H](CC(N)=O)NC(=O)c1ccc2ccccc2n1	TM	MDR	p24	18
COc1ccc(OC)c(CCNC(=S)Nc2ccc(Br)cn2)c1	A17	RT-K103N Y181C	p24	>8000
CC(C)=CCN1Cc2cccc3[nH]c(=S)n(c23)C[C@@H]1C	RT-M184V	RT-E89G	p24	0.13
Cc1cn([C@H]2C[C@H](N=[N+]=[N-])[C@@H](CO)O2)c(=O)[nH]c1=O	RT-M184V XM-M184V	RT-M184V	p24	0.2
Nc1nc(NC2CC2)c2ncn([C@H]3C=C[C@@H](CO)O3)c2n1	BRU PITT.(RT-K65R)	RT-K65R	cytopathic effect / MTT	4
Cc1cn([C@H]2C=C[C@@H](CO)O2)c(=O)[nH]c1=O	TM	MDR	p24	3
Cc1csc(NC(=S)NC[C@H](C)c2ccccc2)n1	NNRTI-resistant (RT Y181C K103N) A17V	RT-Y181C K103N	p24	18
O=c1[nH]cnc2c1ncn2[C@H]1CC[C@@H](CO)O1	Recombinant	RT-F77L	p24	0.1
COc1ccc(S(=O)(=O)N(CC(C)C)C[C@@H](O)[C@H](Cc2ccccc2)NC(=O)O[C@H]2CO[C@H]3OCC[C@H]32)cc1	Clinical isolate	PR-L10I K14R R41K M46L I54V L63P A71V V82A L90M I93L	p24	1
C[C@H](CNC(=S)Nc1ccc(Br)cn1)c1ccccc1	NNRTI-resistant (RT Y181C K103N) A17V	RT-Y181C K103N	p24	40